# Laboratory results published in PMC5826148, “Whole-Cell Screen of Fragment Library Identifies Gut Microbiota Metabolite Indole Propionic Acid as Antitubercular” (Antimicrobial Agents and Chemotherapy, 2018).
# Tests used:
# Conditions in all cases: relative to M. tuberculosis MIC50
# [1] = tested on: human red blood cells (RBCs); assay: Red blood cell lysis assay
# [2] = tested on: HepG2 cells; assay: Cytotoxicity assay, HepG2 cells (CellTiter 96 AQueous One)
# [3] = tested on: THP-1 cells; assay: Cytotoxicity assay, THP-1 cells (CellTiter 96 AQueous One)
Structure (SMILES),RBCs SI (HC50/MIC50) [1],HepG2 cells SI (CC50/MIC50) [2],THP-1 cells SI (CC50/MIC50) [3]
O=C(O)CCc1c[nH]c2ccccc12 [Fragment F1],>14.7,>14.7,>14.7
"O=c1cc(C(F)(F)F)c2ccc(O)cc2o1 [Fragment F2, 7-Hydroxy-4-(trifluoromethyl)-2H-chromen-2-one]",>4.7,4.6,4.1
"Cc1nc(C(N)=S)c[nH]1 [Fragment F3, 2-Methyl-1H-imidazole-4-carbothioamide]",>9.5,>9.5,8.1
"COC(=O)c1cc2ccccc2cn1 [Fragment F4, Methyl isoquinoline-3-carboxylate]",>5.71,>5.71,>5.71
"Nc1ccc2oc3c(c2c1)CCCC3 [Fragment F5, 6,7,8,9-Tetrahydrodibenzo [b,d]furan-2-amine]",>4.1,>4.1,>4.1
"c1ccc2c(c1)[nH]c1cnccc12 [Fragment F6, 9H-Pyrido[3,4-b]indole]",–,4.9,2.4
"Cc1oc(-c2ccc(Cl)cc2)cc1C(=O)N(C)C [Fragment F8, 5-(4-Chlorophenyl)-N,N,2-trimethyl-3-furamide]",3.2,4.4,1.7
"COC(=O)c1sc2ccccc2c1O [Fragment F9, Methyl 3-hydroxy-1-benzo thiophene-2-carboxylate]",>7.0,3.8,4.6
"O=C(O)c1ccc(-c2ccccc2)s1 [Fragment F10, 5-Phenylthiophene-2-carboxylic acid]",>5.4,3.3,2.9
"CSc1cc(-c2ccc(F)cc2)n[nH]1 [Fragment F11, 3-(4-Fluorophenyl)-5-(methylsulfanyl)-1H-pyrazole]",>5.1,4.8,3.9
"Clc1ccc2nc(N3CCCNCC3)sc2c1 [Fragment F12, 6-Chloro-2-(1,4-diazepan-1-yl)-1,3-benzothiazole]",>5.1,0.9,0.6
"NC(=S)COc1cccc(Cl)c1 [Fragment F13, 2-(3-Chlorophenoxy) ethanethioamide]",4.3,2.2,3.1
"Cc1n[nH]c(C)c1Oc1ccc(Cl)cc1 [Fragment F15, 4-(4-Chlorophenoxy)-3,5-dimethyl-1H-pyrazole]",1.9,2.9,1.5
"Cc1cc(C(=O)O)c(C)n1Cc1cccs1 [Fragment F16, 2,5-Dimethyl-1-(2-thienylmethyl)-1H-pyrrole-3-carboxylic acid]",>4.0,3.1,2.9
"NCc1cccc(N2CCCCC2)n1 [Fragment F17, [6-(Piperidin-1-yl)pyridin-2-yl]methanamine]",>4.0,1.8,2.0
"Cc1ccc2c(c1)N(CCO)C(C)(C)CC2C.O (centres unmarked) [Fragment F18, 2-(2,2,4,7-Tetramethyl-1,2,3,4-tetrahydroquinolin-1-yl)ethan-1-ol hydrate]",1.8,0.7,0.9
"CCOC(=O)c1c(N)sc(C)c1-c1ccccc1 [Fragment F19, Ethyl 2-amino-5-methyl-4-phenylthiophene-3-carboxylate]",1.7,0.9,0.9
"O=C(O)c1ccc(-c2cccs2)s1 [Fragment F20, [2,2′-Bithiophene]-5-carboxylic acid]",>3.7,2.8,3.6
"Cc1cc2cc(N)ccc2[nH]1 [Fragment F21, 2-Methyl-1H-indol-5-amine]",>3.6,1.4,1.5
"N#Cc1ccc(O)cc1F [Fragment F22, 2-Fluoro-4-hydroxybenzonitrile]",>3.3,2.9,2.3
"CNCc1ccccc1Oc1ccccc1 [Fragment F23, Methyl[(2-phenoxyphenyl)methyl]amine]",>3.3,2.6,3.2
"Cc1ccc(-c2cc(C(=O)O)c(C)o2)cc1 [Fragment F24, 2-Methyl-5-(4-methylphenyl)-3-furoic acid]",>3.2,3.1,2.8
"O=C(O)c1csc2ccc(Cl)cc12 [Fragment F25, 5-Chloro-1-benzothiophene-3-carboxylic acid]",3.0,2.4,2.7
"O=C(O)c1ccc(-c2ccsc2)cc1 [Fragment F26, 4-(3-Thienyl)benzoic acid]",>3.1,3.0,3.1
"Oc1noc2cc(Cl)ccc12 [Fragment F27, 6-Chlorobenzo[d]isoxazol-3-ol]",>2.5,>2.5,2.0
"OCc1csc(-c2ccc(C(F)(F)F)cc2)n1 [Fragment F28, {2-[4-(Trifluoromethyl)phenyl]-1,3-thiazol-4-yl}methanol]",1.8,>2.3,2.2
"Oc1ccc(Oc2ccccc2)cc1 [Fragment F29, 4-Phenoxyphenol]",2.1,0.5,0.3
